Laboratory results: PubChem BioAssay AID624099 (ICCB-Longwood, 2012)
Test: 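Host factors E2 relies on to silence an HPV18 LCR reporter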 (primary screen). System: human C33A cervical carcinoma cells (HPV-negative) stably expressing BPV1 E2 and an HPV18 LCR luciferase reporter. Reagents: siRNA pool against human genes, 40 nM. Timing: 72 h. Measurement: 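Per-well luciferase luminescence, z-scored on each plate against the plate mean and SD with control wells left out, then averaged across three replicate plates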. Reading the numbers: mean z-score and z-score: higher = stronger reporter signal, weaker E2 silencing. Hit rule: 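Mean z ≥ 2 together with z ≥ 2 in two or more of the three replicates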.
Shown is one part, drawn at random, of about 21,000 deposited reagents. In the full data, 497 (2.4%) were called active. 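Higher z means weaker E2 silencing; only reporter increases were scored, and knock-downs that hurt cell survival may mask genuine repressor factors.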

With PLXNB1 (plexin B1) [SID134323368], what does the deposit list?
mean z-score: -0.74; z-score, replicate A: -0.86; z-score, replicate B: -0.83; z-score, replicate C: -0.52; outcome: inactive

What is on record for SPMAP2 (sperm microtubule associated protein 2) [SID134321039]?
mean z-score: 1.29; z-score, replicate A: 0.75; z-score, replicate B: 1.63; z-score, replicate C: 1.5; outcome: inactive

With IL31RA (interleukin 31 receptor A) [SID134312800], what was measured?
mean z-score: -1.03; z-score, replicate A: -0.93; z-score, replicate B: -1.18; z-score, replicate C: -0.97; outcome: inactive

What is on record for PLRG1 (pleiotropic regulator 1) [SID134323371]?
mean z-score: 0.69; z-score, replicate A: 0.77; z-score, replicate B: 0.97; z-score, replicate C: 0.32; outcome: inactive

With BARD1 (BRCA1 associated RING domain 1) [SID134310122], what does the deposit list?
mean z-score: -0.75; z-score, replicate A: -0.64; z-score, replicate B: -0.65; z-score, replicate C: -0.96; outcome: inactive

For PCDHB1 (protocadherin beta 1) [SID134317873], how do the results read?
mean z-score: -0.01; z-score, replicate A: 0.04; z-score, replicate B: 0.26; z-score, replicate C: -0.33; outcome: inactive

With VPS26C (VPS26 endosomal protein sorting factor C) [SID134316453], how do the results read?
mean z-score: -0.21; z-score, replicate A: -0.17; z-score, replicate B: -0.25; z-score, replicate C: -0.22; outcome: inactive

What did the screen give for MIA2 (MIA SH3 domain ER export factor 2) [SID134323813]?
mean z-score: -0.56; z-score, replicate A: -0.65; z-score, replicate B: -0.63; z-score, replicate C: -0.39; outcome: inactive

Which result is listed for MIA2 (MIA SH3 domain ER export factor 2) [SID134324888]?
mean z-score: -0.22; z-score, replicate A: 0.25; z-score, replicate B: -0.2; z-score, replicate C: -0.71; outcome: inactive

For TENM2 (teneurin transmembrane protein 2) [SID134326031], how do the results read?
mean z-score: 0.16; z-score, replicate A: 0.42; z-score, replicate B: 0.02; z-score, replicate C: 0.04; outcome: inactive

For KIAA1549L (KIAA1549 like) [SID134319995], what does the deposit list?
mean z-score: 1.26; z-score, replicate A: 0.92; z-score, replicate B: 1.67; z-score, replicate C: 1.19; outcome: inactive

With KIAA1549L (KIAA1549 like) [SID134326649], how do the results read?
mean z-score: -0.54; z-score, replicate A: -0.49; z-score, replicate B: -0.62; z-score, replicate C: -0.51; outcome: inactive

For LYRM7 (LYR motif containing 7) [SID134322720], what does the deposit list?
mean z-score: -1.69; z-score, replicate A: -1.98; z-score, replicate B: -1.5; z-score, replicate C: -1.59; outcome: inactive

Which result is listed for IFI27L1 (interferon alpha inducible protein 27 like 1) [SID134319949]?
mean z-score: -0.54; z-score, replicate A: -0.49; z-score, replicate B: -0.57; z-score, replicate C: -0.55; outcome: inactive

Reformatted: 2 of the entries above
| target | PubChem SID | mean z-score | z-score, replicate A | z-score, replicate B | z-score, replicate C | outcome |
| --- | --- | --- | --- | --- | --- | --- |
| KIAA1549L (KIAA1549 like) | SID134319995 | 1.26 | 0.92 | 1.67 | 1.19 | inactive |
| KIAA1549L (KIAA1549 like) | SID134326649 | -0.54 | -0.49 | -0.62 | -0.51 | inactive |

Continued.
For HEPHL1 (hephaestin like 1) [SID134328294], what was measured?
mean z-score: 0.29; z-score, replicate A: 0.28; z-score, replicate B: 0.05; z-score, replicate C: 0.54; outcome: inactive

With GFOD3P [SID134327016], how do the results read?
mean z-score: -1.08; z-score, replicate A: -1.18; z-score, replicate B: -1.1; z-score, replicate C: -0.97; outcome: inactive

For GABPA (GA binding protein transcription factor subunit alpha) [SID134315986], what was measured?
mean z-score: 0.05; z-score, replicate A: 0.31; z-score, replicate C: -0.21; outcome: inactive

What is on record for ADAMTS2 (ADAM metallopeptidase with thrombospondin type 1 motif 2) [SID134311200]?
mean z-score: -0.23; z-score, replicate A: 0.35; z-score, replicate B: -0.37; z-score, replicate C: -0.66; outcome: inactive

How did the screen score TMED6 (transmembrane p24 trafficking protein 6) [SID134312961]?
mean z-score: -0.65; z-score, replicate A: -0.25; z-score, replicate B: -1.08; z-score, replicate C: -0.62; outcome: inactive

With LOC387904 (retired record) [SID134328429], what does the deposit list?
mean z-score: -0.97; z-score, replicate A: -0.85; z-score, replicate B: -0.85; z-score, replicate C: -1.21; outcome: inactive

With SLC5A10 [SID134312381], how do the results read?
mean z-score: 0.61; z-score, replicate A: 0.72; z-score, replicate B: 0.45; z-score, replicate C: 0.66; outcome: inactive
